Experimental data published in PMC11432330, “Novel Drug-like HsrA Inhibitors Exhibit Potent Narrow-Spectrum Antimicrobial Activities against Helicobacter pylori” (International Journal of Molecular Sciences, 2024).

System: T1, CosR (Campylobacter jejuni ATCC 33560)
T1 sequence (looked up): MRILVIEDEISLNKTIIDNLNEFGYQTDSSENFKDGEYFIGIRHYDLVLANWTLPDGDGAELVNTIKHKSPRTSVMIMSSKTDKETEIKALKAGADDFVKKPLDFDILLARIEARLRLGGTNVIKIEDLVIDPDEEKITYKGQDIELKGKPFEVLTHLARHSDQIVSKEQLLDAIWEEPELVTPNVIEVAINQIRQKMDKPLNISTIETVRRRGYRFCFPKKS
Assay: EMSA
Details: EMSA: 10 mM bis-Tris pH 7.5, 40 mM KCl, 100 mg/L BSA, 1 mM DTT, 5% glycerol, room temperature 20 min, 6% native gel, SYBR Safe, recombinant protein, residues 1-223, protein details: His-tag (pET-28a), probe letters rebuilt from the primers and the genome

**Q.** Does “GTAACATAAGTATTGTGATGTTTTCCATGATGATAGCTAAAAGTTTCAGCACTCAAAAAATCACCAAAAGCATTGGTATCATAAGGTAATTTTCTTAATTCAAACATAATTTCTCCTTTATTTTTAGTTTGATATTGAAAATATTACCATAATAATATTAAAAAGAGTAAAAATATCTTAAAAGCTTAGTGGGTAAAATTTCTATTTATTTAACCTAAATAAAATAAGATACATTTATAATATATTTTAATAATAATTTAAATATATATAAAAAATTATATTTTTTTGAAATATTTTTACAAAAAATATCTATTTGTTGATTTTTAATAATTACAATTAATTTGCAACTAAAAATTATTCATAAGGAGGAAAATATGAAAAAAGTTGTACTAATCTCAGCATTACTAGGTGCTTTCGCAG (double strand) [PsodB (sodB promoter)]” bind (700 nM CosR, 120 ng DNA)?
**A.** Result: binds

**Q.** Does “GTAACATAAGTATTGTGATGTTTTCCATGATGATAGCTAAAAGTTTCAGCACTCAAAAAATCACCAAAAGCATTGGTATCATAAGGTAATTTTCTTAATTCAAACATAATTTCTCCTTTATTTTTAGTTTGATATTGAAAATATTACCATAATAATATTAAAAAGAGTAAAAATATCTTAAAAGCTTAGTGGGTAAAATTTCTATTTATTTAACCTAAATAAAATAAGATACATTTATAATATATTTTAATAATAATTTAAATATATATAAAAAATTATATTTTTTTGAAATATTTTTACAAAAAATATCTATTTGTTGATTTTTAATAATTACAATTAATTTGCAACTAAAAATTATTCATAAGGAGGAAAATATGAAAAAAGTTGTACTAATCTCAGCATTACTAGGTGCTTTCGCAG (double strand) [PsodB (sodB promoter)]” bind (ligand V, 0.1-2 mM)?
**A.** Result: binds more weakly

For at least one entry, the source does not settle the construct or the ends of the probe. Weaker means in comparison with the reference protein, sequence or condition of that experiment. Tags and fusion partners may be left off the protein sequences shown. At least one verdict was read from the data and is not stated in words by the source.
